Data taken from publication PMC6149822, “A New Series of Pyrrole-Based Chalcones: Synthesis and Evaluation of Antimicrobial Activity, Cytotoxicity, and Genotoxicity” (Molecules : A Journal of Synthetic Chemistry and Natural …, 2017).

What was measured:
Assay in all cases: MTT assay
Type in all cases: cell-based
[1] = tested on: A549 human lung adenocarcinoma cell line; conditions: SI = IC50 NIH/3T3 / IC50 A549; >value taken as the value
Procedure: (§1) The anticancer effects of compounds 1–10 on A549 human lung adenocarcinoma (ATCC® CCL-185™), HepG2 human hepatocellular carcinoma (ATCC® HB-8065™), and C6 rat glioma (ATCC® CCL107™) cell lines were assessed using 3-(4,5-Dimethylthiazol-2-yl)-2,5-diphenyltetrazolium bromide (MTT) assay, whereas the selectivity of compounds 1–10 was tested using NIH/3T3 mouse embryonic fibroblast cell line (ATCC® CRL-1658™, London, UK). All cell lines were incubated according to the supplier’s recommendations. The cells were seeded as 1 × 10^4 cells into each well of the 96-well plates. MTT assay was performed as previously described. The compounds were tested between the concentrations equal to 1 mM and 0.000316 mM (1.0, 0.316, 0.10, 0.0316, 0.01, 0.00316, 0.001, 0.000316 mM). Stock solutions of compounds were prepared in dimethyl sulfoxide (DMSO) and further dilutions were made with fresh culture medium. The final DMSO concentration was under 1% [34] and cisplatin was used as a positive control. Inhibition % was calculated for each concentration according to the formula below, and IC50 values were determined by plotting a dose–response curve of inhibition % versus compound concentrations tested. All experiments were performed in quadruplicate.Inhibition % = 100 − [(ODtest compound − ODblank/ODsolvent control − ODblank)] × 100(1)

C6 rat glioma cell line = conditions: SI = IC50 NIH/3T3 / IC50 C6; >value taken as the value
Procedure: as §1

[2] = tested on: HepG2 human hepatocellular carcinoma cell line; conditions: SI = IC50 NIH/3T3 / IC50 HepG2; >value taken as the value
Procedure: as §1

SMILES	SI Values A549 Cell Line [1]	SI Values C6 Cell Line (C6 rat glioma cell line)	SI Values HepG2 Cell Line [2]
Cn1cccc1C(=O)C=Cc1ccc(-c2cccc([N+](=O)[O-])c2)o1 [Compound 2, 1-(1-Methyl-1H-pyrrol-2-yl)-3-(5-(3-nitrophenyl)furan-2-yl)prop-2-en-1-one]	1	1.248	1.162
Cn1cccc1C(=O)C=Cc1ccc(-c2ccc([N+](=O)[O-])cc2)o1 [Compound 1, 1-(1-Methyl-1H-pyrrol-2-yl)-3-(5-(4-nitrophenyl)furan-2-yl)prop-2-en-1-one]	363.33	1.298	0.339
Cn1cccc1C(=O)C=Cc1ccc(-c2cccc(Cl)c2)o1 [Compound 6, 1-(1-Methyl-1H-pyrrol-2-yl)-3-(5-(3-chlorophenyl)furan-2-yl)prop-2-en-1-one]	0.388	0.369	0.388
Cn1cccc1C(=O)C=Cc1ccc(-c2ccccc2Cl)o1 [Compound 5, 1-(1-Methyl-1H-pyrrol-2-yl)-3-(5-(2-chlorophenyl)furan-2-yl)prop-2-en-1-one]	0.145	0.145	1.450
Cn1cccc1C(=O)C=Cc1ccc(-c2ccc(Cl)c(Cl)c2)o1 [Compound 10, 1-(1-Methyl-1H-pyrrol-2-yl)-3-(5-(3,4-dichlorophenyl)furan-2-yl)prop-2-en-1-one]	0.428	1.480	1.480
N.N.[Cl][Pt][Cl] [Cisplatin, reference compound]	15.789	6.520	7.895
Cn1cccc1C(=O)C=Cc1ccc(-c2ccc(Cl)cc2[N+](=O)[O-])o1 [Compound 4, 1-(1-Methyl-1H-pyrrol-2-yl)-3-(5-(2-nitro-4-chlorophenyl)furan-2-yl)prop-2-en-1-one]	0.100	0.100	0.360
Cn1cccc1C(=O)C=Cc1ccc(-c2cc(Cl)ccc2Cl)o1 [Compound 9, 1-(1-Methyl-1H-pyrrol-2-yl)-3-(5-(2,5-dichlorophenyl)furan-2-yl)prop-2-en-1-one]	0.315	1	1.079
Cn1cccc1C(=O)C=Cc1ccc(-c2ccc(Cl)cc2Cl)o1 [Compound 8, 1-(1-Methyl-1H-pyrrol-2-yl)-3-(5-(2,4-dichlorophenyl)furan-2-yl)prop-2-en-1-one]	1.231	3.077	2.613
Cn1cccc1C(=O)C=Cc1ccc(-c2ccc(Cl)cc2)o1 [Compound 7, 1-(1-Methyl-1H-pyrrol-2-yl)-3-(5-(4-chlorophenyl)furan-2-yl)prop-2-en-1-one]	0.408	0.129	1.739
Cn1cccc1C(=O)C=Cc1ccc(-c2ccccc2[N+](=O)[O-])o1 [Compound 3, 1-(1-Methyl-1H-pyrrol-2-yl)-3-(5-(2-nitrophenyl)furan-2-yl)prop-2-en-1-one]	1	1	11.926
